# Library screen at single concentrations

Measurements from “University of Dundee, Small-Polar-MMV Screening Library” (2021), ChEMBL document CHEMBL3988442.

Mtb glucose medium: 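Whole-cell growth test on Mycobacterium tuberculosis, read after 3 days in glucose-containing 7H9 medium; the read-out is not stated. Compounds at 50 µM. Higher reads as more growth inhibition (inferred: compounds with an IC50 in retests scored well above the rest). About 69,000 compounds were tested under these conditions; 1.1% (about 760) showed 50% or more at least once.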
Mtb cholesterol medium: 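Phenotypic screen: M. tuberculosis growth, cholesterol and DPPC medium, 4 days; the read-out is not stated. Compounds at 50 µM. Higher reads as more growth inhibition (inferred: compounds with an IC50 in retests scored well above the rest). About 69,000 compounds were tested under these conditions; 0.54% (about 370) showed 50% or more at least once.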

Each number is a percent effect as filed.
The record does not define 0% and 100%; most values in the screen are far below 50% and negative numbers occur (in some assays of this library far below -100).
The entries come from a sample that favours strong results.
Two or more numbers in one place are separate tests of the same structure; such repeats can differ widely.
A dash means the value is not listed here; it may have been measured.

| # | SMILES | Mtb glucose medium | Mtb cholesterol medium |
|---|---|---|---|
| 1 | `O[C@@H]1CN(c2cnc3ccccc3n2)CC[C@H]1c1ccc2c(c1)OCO2` | 81.52 | 80.2 |
| 2 | `c1ccc(CCN2CCN(c3ccc4nncn4n3)CC2)cc1` | 50.05 | - |
| 3 | `Cc1cc(C)n(CC2CCCN2CC(=O)Nc2nncs2)n1` (centres undefined) | -15.35 | - |
| 4 | `COc1ccc(C(=O)N2CCN(c3cc(CCN)nc(C)n3)CC2)cc1` | 4.797 | - |
| 5 | `Cn1cnc(S(=O)(=O)NCCCN2CCCC2=O)c1Cl` | -36.55 and -5.286 | - |
| 6 | `Cc1nc2ccccc2nc1CN(C)C1CCCN(c2cccnn2)C1` (centres undefined) | 4.709 | - |
| 7 | `Fc1ccc(C(NCc2nnc(C3CC3)o2)C2CCC2)cc1` (centres undefined) | 44.42 | 43.62 |
| 8 | `O=C(NCCNc1ncccn1)c1ccc(Br)cc1` | 32.21 | - |
| 9 | `O=c1[nH]cnc2c1CCN(S(=O)(=O)c1ccc(Cl)cc1)C2` | 11.43 | - |
| 10 | `c1ccc2c(c1)CCN(c1ncnc3sc4c(c13)CCNC4)C2` | 37.62 | 18.87 |
| 11 | `CCc1cc(=O)[nH]c(-c2ccc(NC(C)CN3CCOCC3)nc2)n1` (centres undefined) | 12.09 | - |
| 12 | `CC(=O)N1CCc2ccc(NC(=O)c3cn(C)nn3)cc2C1` | 24.96 | - |
| 13 | `Cc1sc(Br)cc1S(=O)(=O)NCCCN.Cl` | 35.38 | - |
| 14 | `Cc1nc(CNC(=O)CC2C(=O)NCCN2CCC(C)C)n[nH]1` (centres undefined) | -15.8 | - |
| 15 | `CCOc1ccccc1-c1cc(N)[nH]n1.Cl` | -7.896 | 3.151 and -11.97 |
| 16 | `CN(Cc1nnc2n1CCC2)C(=O)c1ccc2c(c1)OCCO2` | -42.91 | - |
| 17 | `Cc1cc(CN2CCN(C(=O)CCc3ccco3)CC2)on1` | 32.27 and 26.48 | - |
| 18 | `CC(CNC(=O)c1cc(-n2cccn2)ccn1)Cn1ccnc1` (centres undefined) | -15.15 | - |
| 19 | `COCc1noc(-c2ccc(N(C)Cc3ccc(C)o3)nc2)n1` | - | 55.63 and 40.27 |
| 20 | `O=C1CCNc2ncc(-c3ccc(Cl)cc3)cc2CN1C1CC1` | 33.67 | - |
| 21 | `O=C(NCCN1CCOCC1)c1ccn(-c2ccc3ccccn23)n1.O=C(O)C(F)(F)F` | 14.96 | - |
| 22 | `COc1ccc(NC(=O)c2nc3ccccc3n(C)c2=O)cc1OC` | 9.869 | - |
| 23 | `COc1ccc(C(CNS(=O)(=O)c2cn(C)nc2C)N2CCCC2)cc1.Cl` (centres undefined) | - | -8.429 and -37.38 |
| 24 | `CN(C)C(=O)COCC1CN(Cc2ccoc2)Cc2nnn(C)c21` (centres undefined) | - | -29.46 |
| 25 | `CN1CCC(c2cccc(Cc3ccccc3)n2)CC1` | 27.16 | - |
| 26 | `CC1(C)Cc2c(cnn2-c2ccccc2)C(NC2CCSCC2)C1` (centres undefined) | 51.19 and 10.37 | - |
| 27 | `CN(CC1CCCCO1)c1nncc(-c2cccc(F)c2)n1` (centres undefined) | 38 | - |
| 28 | `CNC(=O)Nc1cc(-c2ccc(Br)cc2)nn1CCO` | 2.164 and 22.95 | - |
| 29 | `[H][C@]12CC[C@]([H])(CN(Cc3cscn3)C1)N(Cc1cc(CC(C)C)[nH]n1)C2` | 50.1 | - |
| 30 | `NC1CCN(C2CCN(c3ccc(-c4ccco4)cc3)CC2)CC1` | 22.63 and 43.41 | - |
| 31 | `O=C(Cc1ccc2c(c1)OCCO2)N1CCCC(n2cccn2)C1` (centres undefined) | - | 16.43 |
| 32 | `Cc1cnn(CC2CCCN2Cc2ncc(-c3ccccc3)o2)c1` (centres undefined) | -8.824 | - |
| 33 | `CS(=O)(=O)NC1CCN(Cc2coc(-c3ccc(Cl)cc3)n2)CC1` | 15.44 and 4.527 | - |
| 34 | `CC(C)Cc1cc(NC(=O)c2ccccc2)n(C)n1` | 52.67 | - |
| 35 | `CNC(=O)NC(=O)CCN1CCOC(c2ccc(Br)cc2)C1` (centres undefined) | - | 45.49 |
| 36 | `Cl.O=c1c2sccc2nc2n1CCN(Cc1cc(F)ccc1F)CC2` | 60.16 | 47.09 |
| 37 | `NC(=O)CSc1ccccc1NCc1nc(C2CC2)no1` | -7.52 and -32.24 | - |
| 38 | `O=C(NCC1CCOC1)c1csc(-c2cccc(Cl)c2)n1` (centres undefined) | 12.86 | - |
| 39 | `Cc1nc(CCN2CCC(Oc3ccccc3F)CC2)cs1` | 5.116 | - |
| 40 | `CN(C)c1cc(CNC(=O)Nc2ccc(C#N)cc2)ccn1` | 16.13 | -0.5137 |
| 41 | `CCCc1cc(C(=O)N2CC(c3ccncc3)C2)ccn1` | 18.82 | -10.64 |
| 42 | `CCc1ccc(C(=O)N2CCN(Cc3ccc(F)cc3)CC2)s1` | 69.34 | 62.57 |

The last 3 entries again:

* CN(C)c1cc(CNC(=O)Nc2ccc(C#N)cc2)ccn1 : Mtb glucose medium: 16.13%; Mtb cholesterol medium: -0.5137%
* CCCc1cc(C(=O)N2CC(c3ccncc3)C2)ccn1 : Mtb glucose medium: 18.82%; Mtb cholesterol medium: -10.64%
* CCc1ccc(C(=O)N2CCN(Cc3ccc(F)cc3)CC2)s1 : Mtb glucose medium: 69.34%; Mtb cholesterol medium: 62.57%